Reference: PubChem BioAssay AID624099 (ICCB-Longwood, 2012)
In all, the deposit lists about 21,000 reagents; below is a part drawn at random. Of all reagents, 497 (2.4%) got an active call. 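Higher z means weaker E2 silencing; only reporter increases were scored, and knock-downs that hurt cell survival may mask genuine repressor factors.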 Entries without a mark were called inactive. The numbers tell different reagents against one gene apart.

Aim: 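Host factors E2 relies on to silence an HPV18 LCR reporter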 (primary screen)
Cells: human C33A cervical carcinoma cells (HPV-negative) stably expressing BPV1 E2 and an HPV18 LCR luciferase reporter
Reagents: siRNA pool against human genes, 40 nM
Duration: 72 h
Read-out: 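HPV18 LCR reporter light per well, converted to plate-wise z-scores that exclude control wells, and averaged over triplicate plates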
Reading the numbers: mean z-score and z-score: higher = stronger reporter signal, weaker E2 silencing
Hit rule: 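Hit if mean z-score reaches 2 and two or more of three replicate z-scores also reach 2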

| gene knocked down | pool no. | mean z-score | z-score, replicate A | z-score, replicate B | z-score, replicate C |
| --- | --- | --- | --- | --- | --- |
| DZIP1L (GeneID 199221) | 1 | -1.41 | -1.37 | -1.5 | -1.35 |
| SPINK14 (GeneID 408187) | 1 | 0.24 | -0.28 | 1.17 | -0.18 |
| HNRNPA0 (GeneID 10949) | 1 | -1.43 | -1.5 | -1.41 | -1.39 |
| TBC1D26 (GeneID 353149) | 1 | 0.5 | 0.36 | 0.32 | 0.83 |
| H2BW2 (GeneID 286436) | 1 | 0.06 | -0.15 | -0.09 | 0.41 |
| ELOA3P (GeneID 162699) | 1 | 1.39 | 1.29 | 1.5 | 1.39 |
| C20orf203 (GeneID 284805) | 1 | -0.17 | -0.43 | 0.08 | -0.16 |
| OR2T1 (GeneID 26696) | 1 | -0.41 | -0.38 | -0.12 | -0.72 |
| ADAMTS6 (GeneID 11174) | 1 | -0.41 | -0.11 | -0.6 | -0.53 |
| ADAMTS6 (GeneID 11174) | 2 | 2.31 (active) | 2.61 | 2.21 | 2.1 |
| DLK2 (GeneID 65989) | 1 | -1.15 | -1.26 | -1.16 | -1.02 |
| OR1D2 (GeneID 4991) | 1 | -0.61 | -0.62 | -0.94 | -0.28 |
| MYO1H (GeneID 283446) | 1 | -0.16 | 0.36 | -0.42 | -0.41 |
| USP11 (GeneID 8237) | 1 | -0.96 | -0.78 | -1.04 | -1.07 |
| GMFB (GeneID 2764) | 1 | 0.47 | 0.65 | 0.32 | 0.45 |
| SC5D (GeneID 6309) | 1 | 0.54 | 0.32 | 0.6 | 0.71 |
| EIF3C (GeneID 8663) | 1 | -2.86 | -2.4 | -2.91 | -3.28 |
| SNX27 (GeneID 81609) | 1 | 0.42 | 0.41 | 0.35 | 0.5 |
| CYP4A22 (GeneID 284541) | 1 | -0.94 | -1.34 | -0.65 | -0.82 |
| RMND5B (GeneID 64777) | 1 | -0.76 | -0.81 | -0.56 | -0.9 |
| CUL4A (GeneID 8451) | 1 | -0.08 | -0.2 | -0.2 | 0.15 |
| SGK1 (GeneID 6446) | 1 | -1.08 | -1.14 | -1.31 | -0.78 |
| ZNF461 (GeneID 92283) | 1 | 0.59 | 0.78 | 0.47 | 0.53 |
| GARIN6 (GeneID 196472) | 1 | -0.24 | 0.05 | -0.18 | -0.6 |
| AGTR1 (GeneID 185) | 1 | -0.87 | -0.98 | -0.87 | -0.75 |
| MAT2B (GeneID 27430) | 1 | 0.65 | 0.76 | 0.37 | 0.84 |
| SLITRK2 (GeneID 84631) | 1 | -0.19 | 0.1 | 0.21 | -0.9 |
| RAP1GDS1 (GeneID 5910) | 1 | 2.21 (active) | 2.34 | 1.84 | 2.44 |
| ZNF408 (GeneID 79797) | 1 | -0.59 | -0.57 | -0.71 | -0.5 |
| HIKESHI (GeneID 51501) | 1 | -0.93 | -0.7 | -1.17 | -0.92 |
| GFOD1 (GeneID 54438) | 1 | -0.36 | -0.16 | -0.29 | -0.65 |
| GFOD1 (GeneID 54438) | 2 | 0.13 | -0.21 | 0.35 | 0.24 |
| OCLN (GeneID 100506658) | 1 | 0.9 | 0.88 | 0.8 | 1.01 |
| EMILIN1 (GeneID 11117) | 1 | 1.03 | 1.11 | 0.83 | 1.14 |
| REG1CP (GeneID 5969) | 1 | 1.59 | 1.74 | 1.54 | 1.48 |
| FAM131B (GeneID 9715) | 1 | 0.62 | 0.76 | 0.43 | 0.68 |
| CHGA (GeneID 1113) | 1 | -0.61 | -0.81 | -0.55 | -0.48 |
| PAK1IP1 (GeneID 55003) | 1 | -0.37 | -0.07 | -0.32 | -0.71 |
| PRRX1 (GeneID 5396) | 1 | -1.36 | -1.69 | -1.29 | -1.1 |
| ALG1L9P (GeneID 285407) | 1 | 0.77 | 0.3 | 1.03 | 0.97 |
| HOXB1 (GeneID 3211) | 1 | 0.7 | 0.81 | 0.52 | 0.76 |
| MFAP2 (GeneID 4237) | 1 | -0.01 | -0.05 | -0.07 | 0.09 |
| HFE (GeneID 3077) | 1 | -0.96 | -1.04 | -1.02 | -0.82 |
| TRIM63 (GeneID 84676) | 1 | 1.89 | 1.82 | 1.98 | 1.86 |
| UGT1A10 (GeneID 54575) | 1 | -0.85 | -0.95 | -0.98 | -0.62 |
| INSIG1 (GeneID 3638) | 1 | 0.88 | 0.83 | 0.89 | 0.93 |
| KLRF1 (GeneID 51348) | 1 | -0.41 | -0.52 | -0.4 | -0.32 |
| FAM78B (GeneID 149297) | 1 | 0.66 | 0.66 | 0.92 | 0.4 |
| PRKG2 (GeneID 5593) | 1 | -0.57 | -0.37 | -0.82 | -0.53 |
| LOC399961 (retired record) (GeneID 399961) | 1 | -0.17 | -0.56 | 0.02 | 0.04 |
| LINC02897 (GeneID 388759) | 1 | 1.38 | 0.57 | 1.32 | 2.25 |
| SRY (GeneID 6736) | 1 | 0.02 | 0.1 | 0.09 | -0.13 |
| LOC145414 (retired record) (GeneID 145414) | 1 | -0.78 | -0.68 | -1.09 | -0.57 |
| CCNO (GeneID 10309) | 1 | -0.8 | -0.67 | -0.89 | -0.84 |
| ATG4C (GeneID 84938) | 1 | -0.46 | -0.22 | -0.68 | -0.48 |
| RBAKDN (GeneID 389458) | 1 | -0.44 | -0.32 | -0.49 | -0.51 |
| DNAJA1 (GeneID 3301) | 1 | 0.37 | 0.7 | 0.3 | 0.13 |

Ordered by “z-score, replicate B” (low to high): 8 of the entries above
| gene knocked down | pool no. | mean z-score | z-score, replicate A | z-score, replicate B | z-score, replicate C |
| --- | --- | --- | --- | --- | --- |
| HFE (GeneID 3077) | 1 | -0.96 | -1.04 | -1.02 | -0.82 |
| UGT1A10 (GeneID 54575) | 1 | -0.85 | -0.95 | -0.98 | -0.62 |
| PRKG2 (GeneID 5593) | 1 | -0.57 | -0.37 | -0.82 | -0.53 |
| KLRF1 (GeneID 51348) | 1 | -0.41 | -0.52 | -0.4 | -0.32 |
| MFAP2 (GeneID 4237) | 1 | -0.01 | -0.05 | -0.07 | 0.09 |
| INSIG1 (GeneID 3638) | 1 | 0.88 | 0.83 | 0.89 | 0.93 |
| FAM78B (GeneID 149297) | 1 | 0.66 | 0.66 | 0.92 | 0.4 |
| TRIM63 (GeneID 84676) | 1 | 1.89 | 1.82 | 1.98 | 1.86 |
